## Fitness effects across NS2B and the NS3 protease domain of Zika virus

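Mutant virus pools were grown in human Huh-7.5 cells. Sequencing of three replicate libraries (two for positions 207-308) was averaged into one effect per change. The aim was to find sites where inhibitor-binding pockets cannot change.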

Protein: NS2B and the protease part of NS3 of Zika virus strain MR766. Positions count along the chain below; NS2B spans 2-131 and NS3 starts at 132.
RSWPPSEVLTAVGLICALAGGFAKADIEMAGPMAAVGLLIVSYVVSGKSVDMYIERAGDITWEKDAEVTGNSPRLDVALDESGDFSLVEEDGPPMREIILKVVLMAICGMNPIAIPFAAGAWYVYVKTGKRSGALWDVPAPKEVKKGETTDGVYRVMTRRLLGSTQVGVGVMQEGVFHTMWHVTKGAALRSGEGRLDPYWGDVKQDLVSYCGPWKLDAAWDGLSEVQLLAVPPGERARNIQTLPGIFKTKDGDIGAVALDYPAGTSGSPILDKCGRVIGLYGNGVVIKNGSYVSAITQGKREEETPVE

Scale: log2 effect, wild type = 0; the lower, the more harmful to the virus. Each entry names the wild-type residue, its position and the residue put in its place. All changes here are to arginine.

With L216R the assay gave -8.08. With D217R the assay gave -5.80. A218R read -4.86. A219R read 1.19. W220R gave -6.95.

D221R gave -6.74. G222R read -2.52. L223R gave -7.14. With S224R the assay gave -7.40. E225R read -7.00.

V226R read -6.47. For Q227R the result was -5.76. L228R gave -5.88. L229R read -3.54. For A230R the result was -5.70.

For V231R the result was -5.36. P232R gave -5.94. P233R gave -6.72. With G234R the assay gave 0.07. E235R gave -3.24.

A237R gave -2.38. N239R gave -6.74. For I240R the result was -7.44. For Q241R the result was -6.59. T242R gave -7.12.

With L243R the assay gave -2.61. P244R read -6.15. For G245R the result was -6.76. With I246R the assay gave -5.56. F247R gave -7.28.

K248R gave 1.05. For T249R the result was -6.86. K250R gave -0.73. For D251R the result was -6.78. G252R gave -0.49.

For D253R the result was -7.05. For I254R the result was -7.11. G255R gave -7.59. For A256R the result was -7.06. V257R read -5.84.

A258R read -6.58. L259R read -6.93. For D260R the result was -5.07. With Y261R the assay gave -4.23. For P262R the result was -5.98.

With A263R the assay gave -6.60. G264R gave -7.03. T265R gave -5.46. For S266R the result was -6.25. With G267R the assay gave -5.32.

S268R read -5.82. P269R read -5.94. With I270R the assay gave -5.66. With L271R the assay gave -5.60. D272R read -5.00.

K273R read -0.80. For C274R the result was -1.40. G275R read -4.01. V277R read -5.79. I278R gave -6.46.

G279R read -6.40. For L280R the result was -6.79. Y281R gave -6.36. With G282R the assay gave -5.40. N283R gave -6.25.

For G284R the result was -5.15. V285R read -6.11. With V286R the assay gave -6.40. For I287R the result was 0.85. K288R gave -0.40.

N289R read -6.52. With G290R the assay gave -6.90. With S291R the assay gave -5.01. Y292R read -5.25. For V293R the result was -6.33.

S294R read -6.49. With A295R the assay gave -6.27. I296R gave -6.30. T297R read -6.04. Q298R gave -5.48.

G299R gave -5.13. With K300R the assay gave -0.21. For E302R the result was -1.22. For E303R the result was -2.66. With E304R the assay gave -2.39.

With T305R the assay gave -1.00. For P306R the result was -3.59. V307R read -2.71. For E308R the result was -1.06.

Extract of 8 entries:

{"mutation": "P233R", "log2 effect": -6.72}
{"mutation": "G264R", "log2 effect": -7.03}
{"mutation": "P269R", "log2 effect": -5.94}
{"mutation": "L223R", "log2 effect": -7.14}
{"mutation": "E225R", "log2 effect": -7.00}
{"mutation": "D251R", "log2 effect": -6.78}
{"mutation": "V226R", "log2 effect": -6.47}
{"mutation": "L243R", "log2 effect": -2.61}

Position 1 still belongs to NS2A. In the paper, -1 or higher counts as tolerated. Values above 0 are not proof of better growth: six high scorers were tested one by one, five grew less well than wild type and one about as well. The region was split into three libraries (1-103, 104-206, 207-308).

Source: Ni et al. 2025 (doi:10.1038/s41467-025-63602-z), supplementary data.